The data set deals with NF-kB p50 + NF-kB p65. Briefly: EMSA supershift. To be noted: TF-1 extract, TF-1 nuclear extract, 1x binding buffer (composition not given), 1 ug poly(dI-dC), 15 ug BSA, 20 uL, 30 min at 4 C, 4.5% native gel at 4 C, pH and salt not given, protein in an extract, label: 32P end label.
Where [1] appears, read: TNF-a treated, more complex than WT.
[2] abbreviates: untreated, more complex than WT.
[3] abbreviates: TNF-a treated, complex less prominent than with 5T/3T5T.

This is an account of results in PMC4047001.

For at least one entry, the source does not settle the construct or the ends of the probe. At least one result comes from cells or an extract, where the contact may be indirect. At least one verdict rests on a figure or table, not on a statement of the authors.

As to “TCGAGCTTGCTACAAGGGACTTTCCGCTGGGGACTTTCCAGGGAGGTGTGGCC (double strand) [LAI LTR 5T long probe]”, the binding result reads like this: under setting [1], “binds”; under setting [2], “binds”.

For the sequence “TCGAGCTTGCTACAAGGGACTTTCCGCTGGGGACTTTCCAGGGAGGCGTGGCC (double strand) [LAI LTR WT long probe]”, the binding result under setting [3] is “binds”. Still for that read-out and setting: with “TCGAGTTTGCTACAAGGGACTTTCCGCTGGGGACTTTCCAGGGAGGCGTGGCC (double strand) [LAI LTR 3T long probe]” the entry was “binds”.

For the sequence “TCGAGTTTGCTACAAGGGACTTTCCGCTGGGGACTTTCCAGGGAGGTGTGGCC (double strand) [LAI LTR 3T5T long probe]”, the binding result is on record as “binds” under setting [1] and “binds” under setting [2].
